The text below walks through data of patent US20250043259, “ENDONUCLEASES THAT SELECTIVELY CLEAVE SINGLE-STRANDED NUCLEIC ACIDS AND USES THEREOF” (INSTITUT NATIONAL DE LA RECHERCHE SCIENTIFIQUE, published 2025).

This series concerns the target T1, SsnA (NMV_0044) (Neisseria meningitidis 8013 2C4.3) (UniProt Q9K1N6).
T1 sequence (looked up, limits assumed): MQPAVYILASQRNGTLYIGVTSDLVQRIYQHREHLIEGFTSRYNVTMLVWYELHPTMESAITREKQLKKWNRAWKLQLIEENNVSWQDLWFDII
Description: EMSA. The conditions noted are these: [none (strand 2 printed 3'-5', reversed here)]; no recognition sequence; purified recombinant protein; protein details: N-terminal 6xHis; folded or branched …; letters built from the parent sequence and the stated change. For orientation: In EMSA bound probe runs differently from free probe, usually more slowly.

Construct, isoform or probe ends are uncertain for at least one entry. No signal at the amounts used counts as a negative. Where a protein sequence is shown, tags need not be part of it.

For “AGGAACCTCGAGGGATCCGTCCTAGCAAGCCGCTGCTACCGGAAGCTTCTCGAGGTTCCT / AGGAACCTCGAGTCTAGACTGCAGTTGAGAGCTTGCTAGGACGGATCCCTCGAGGTTCCT [Pseudo-Y]”, the binding result is given as “no binding”.
